Patent US20060115815A1 (priority 2002, published 2006)

How the values were obtained:
[1] = test system: recombinant HIV-1 strain, protease 8K/46I/90M; experiment: Cross-resistance profile assay, mutant 8K/46I/90M; format: cell-based
[2] = test system: recombinant HIV-1 strain, protease 54V/71V/82S; experiment: Cross-resistance profile assay, mutant 54V/71V/82S
[3] = test system: recombinant HIV-1 strain, protease 10F/46I/71V/82T/90M; experiment: Cross-resistance profile assay, mutant 10F/46I/71V/82T/90M; format: cell-based
[4] = test system: recombinant HIV-1 strain, protease 46I/84A; experiment: Cross-resistance profile assay, mutant 46I/84A
[5] = test system: recombinant HIV-1 strain, protease 48V/54V/71V/82S; experiment: Cross-resistance profile assay, mutant 48V/54V/71V/82S; format: cell-based
[6] = test system: recombinant HIV-1 strain, protease 10R/46I/82T/84V; experiment: Cross-resistance profile assay, mutant 10R/46I/82T/84V
[7] = test system: recombinant HIV-1 strain, protease 46I/47V/50V; experiment: Cross-resistance profile assay, mutant 46I/47V/50V; format: cell-based
[8] = test system: recombinant HIV-1 strain, protease 10I/48V/54V/82A; experiment: Cross-resistance profile assay, mutant 10I/48V/54V/82A
[9] = test system: recombinant HIV-1 strain, protease 30N/50S/82I/88D; experiment: Cross-resistance profile assay, mutant 30N/50S/82I/88D; format: cell-based

| Compound | Fold Change in EC50 Relative to WT HIV-1 [1] | Fold Change in EC50 Relative to WT HIV-1 [2] | Fold Change in EC50 Relative to WT HIV-1 [3] | Fold Change in EC50 Relative to WT HIV-1 [4] | Fold Change in EC50 Relative to WT HIV-1 [5] | Fold Change in EC50 Relative to WT HIV-1 [6] | Fold Change in EC50 Relative to WT HIV-1 [7] | Fold Change in EC50 Relative to WT HIV-1 [8] | Fold Change in EC50 Relative to WT HIV-1 [9] |
| --- | --- | --- | --- | --- | --- | --- | --- | --- | --- |
| CCCCOC(=O)C(C)NP(=O)(COc1ccc(CC(NC(=O)OC2COC3OCCC23)C(O)CN(CC(C)C)S(=O)(=O)c2ccc(OC)cc2)cc1)NC(C)C(=O)OCCCC (stereo not drawn) [GS-16503] | 1.2 | 0.9 | 1 | 1 | 0.5 | 1 | 3.3 | 0.4 | 0.6 |
| CCOC(=O)C(C)NP(=O)(COc1ccc(CC(NC(=O)OC2COC3OCCC23)C(O)CN(CC(C)C)S(=O)(=O)c2ccc(OC)cc2)cc1)Oc1ccccc1 (stereo not drawn) [GS-16571] | 1.8 | 0.6 | 0.8 | 1 | 0.2 | 0.6 | 0.8 | 0.3 | 0.7 |
